Data set [1] has as its target HlyU C30S (Vibrio vulnificus MO6-24/O) (UniProt A0A3Q0L222). The data set can be described thus: EMSA. Conditions: HlyU 100 nM, 10 mM Tris-Cl pH 7.5, 50 mM KCl, 5 mM MgCl2, 5% glycerol, 0.1 ug poly(dI-dC) in 20 ul, 5 nM DNA, 25 C, 0.5 h, 6% native PAGE, recombinant protein, residues 1-98, protein details: His6 (pProEX-HTa), label: 32P 5' label on PrtxA-EMSA-R strand, probe letters rebuilt from the primers and the genome.

Data set [2] addresses HlyU (Vibrio vulnificus MO6-24/O) (UniProt A0A3Q0L222). The data set can be described thus: EMSA. Conditions: 10 mM Tris-Cl pH 7.5, 50 mM KCl, 5 mM MgCl2, 5% glycerol, 0.1 ug poly(dI-dC) in 20 ul, 5 nM DNA, 25 C, 0.5 h, 6% native PAGE, recombinant protein, residues 1-98, protein details: His6 (pProEX-HTa), label: 32P 5' label on PrtxA-EMSA-R strand, probe letters rebuilt from the primers and the genome.

Experimental findings from PMC6416295 are described below.

Construct, isoform or probe ends are uncertain for at least one entry. For some of these results: At least one verdict rests on a figure or table, not on a statement of the authors.

For the sequence “TCAAATAAAATGGCGGGTGTTTTTATTTTCTCTATGTTTTTAAATTGTGAATGTTTTGTGGTTATTCTTACTTTGTTTGCTTTTTGTATTTTTTCGAGTTCATCTTTGTAATTATTAGTTTTTGTTAAATTAGCATTTTCTTTAAATTGTTCTCTATTACCGCTGATGATACTTAAATAAAAGTGAATACATATCAGCGTCAACCCTTCATTGTTGGACATAATTAAATTACTTAGCCGATGTTTATTGCAGCGTTTTTGAAGG (double strand) [PrtxA 264-bp]”, the binding result is “binds” in data set [1] (10 uM CM14 (binding less affected than WT)); “binds” in data set [1] (10% DMSO); “binds” in data set [2] (20 uM random control chemical, HlyU 50 or 100 nM). For the same sequence, the Kd in data set [2] (without CM14) came out at 25.2 nM.
